PubChem BioAssay AID1259414 – Drosophila RNAi Screening Center – 2018
Purpose: 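Genome-wide screen for host control of endosymbiont load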 (primary screen). Cells: Drosophila JW18 cells infected with Wolbachia. Reagent: long dsRNA against Drosophila genes, 0.25 µg dsRNA per well of a 384-well plate. Duration: 5 days. Treatment: cells persistently infected with Wolbachia before knock-down; no added drug. Read-out: 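Imaged fluorescence in situ signal for Wolbachia 23S rRNA per DAPI-counted host cell, given as a robust z-score within each plate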. Scale: Wolbachia per cell robust z: higher = more Wolbachia per host cell than the plate typical. Call rule: 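Hit when robust z is 1.5 or more, or -1.5 or less, in at least two of three replicates; excludes dsRNAs with several or no targets, genes not expressed in JW18 and well A1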.
The screen tested about 24,000 reagents; this is an unselected part of those that have a named target and a result. Of all reagents, about 1,210 (5%) got an active call. 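Inactive calls also include excluded dsRNAs with several or no targets, genes unexpressed in JW18, and well A1, regardless of score.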 Unmarked entries are inactive. Names joined by + are all predicted targets of the reagent. Reagent sequences are not shown.

no.	Target gene	dsRNA	Wolbachia per cell robust z, rep 1	Wolbachia per cell robust z, rep 2	Wolbachia per cell robust z, rep 3
1	lncRNA:CR43314 (long non-coding RNA::CR43314)	DRSC21354	0.555	0.383	0.592
2	lncRNA:CR43314 (long non-coding RNA::CR43314)	DRSC29259	0.366	-0.532	-0.855
3	Ube4B (Ubiquitination factor E4B)	DRSC03277	-0.105	-0.1	-0.829
4	eya (eyes absent)	DRSC03510	0.467	0.0567	0.372
5	eya (eyes absent)	DRSC40867	0.16	-0.0236	0.0512
6	CG12581	DRSC12206	-2.09	0.195	0.667
7	CG12581	DRSC12207	0.0976	-1.23	-0.561
8	Hr83 (Hormone receptor 83)	DRSC12521	1.07	1.3	0.165
9	Hr83 (Hormone receptor 83)	DRSC25662	-5.28	-1.02	-9
10	Pp4-19C (Protein phosphatase 19C)	DRSC20559	0.377	0.0421	-0.149
11	Pp4-19C (Protein phosphatase 19C)	DRSC21251	1.33	0.649	1.23
12	Pp4-19C (Protein phosphatase 19C)	DRSC23319	0.221	0.526	-1.03
13	Pp4-19C (Protein phosphatase 19C)	DRSC26053	1	2.45	1.44
14	CG10598	DRSC19358	-0.19	0.25	-1.56
15	CG10598	DRSC25200	-1.36	0.0636	-0.119
16	CG31913	DRSC00892	-0.552	-1.08	0.122
17	CG31913	DRSC27532	-1.2	0.48	-0.457
18	CG14439	DRSC17931	-0.601	-0.495	-0.238
19	CG10232	DRSC14218	0.953	-1.22	0.598
20	HERC2 (HECT and RLD domain containing protein 2)	DRSC20566	-0.728 (active)	-1.78	-2.18
21	CG34301	DRSC38825	0.146	1.04	0.272
22	Kdm4B (Lysine demethylase 4B)	DRSC06862	-0.0842	-1.62	0.393
23	Kdm4B (Lysine demethylase 4B)	DRSC26702	-1.11	-0.04	0.349
24	tho2	DRSC00646	-0.0744	-0.358	-0.0421
25	tho2	DRSC28626	-0.748	1.23	-0.291

No new results follow: an excerpt of the list.
no.	Target gene	dsRNA	Wolbachia per cell robust z, rep 1	Wolbachia per cell robust z, rep 2	Wolbachia per cell robust z, rep 3
8	Hr83 (Hormone receptor 83)	DRSC12521	1.07	1.3	0.165
9	Hr83 (Hormone receptor 83)	DRSC25662	-5.28	-1.02	-9
10	Pp4-19C (Protein phosphatase 19C)	DRSC20559	0.377	0.0421	-0.149
11	Pp4-19C (Protein phosphatase 19C)	DRSC21251	1.33	0.649	1.23
12	Pp4-19C (Protein phosphatase 19C)	DRSC23319	0.221	0.526	-1.03
13	Pp4-19C (Protein phosphatase 19C)	DRSC26053	1	2.45	1.44
14	CG10598	DRSC19358	-0.19	0.25	-1.56
15	CG10598	DRSC25200	-1.36	0.0636	-0.119
16	CG31913	DRSC00892	-0.552	-1.08	0.122
17	CG31913	DRSC27532	-1.2	0.48	-0.457

Continued.
no.	Target gene	dsRNA	Wolbachia per cell robust z, rep 1	Wolbachia per cell robust z, rep 2	Wolbachia per cell robust z, rep 3
26	GstD3 (Glutathione S transferase D3)	DRSC15571	-0.177	0.323	0.475
27	GstD3 (Glutathione S transferase D3)	DRSC24755	0.445	0.691	-0.823
28	CG13933	DRSC08402	-0.269	0.0941	0.491
29	CG15252	DRSC17981	-4.73	-1.23	-1.12
30	CG15252	DRSC29645	0.387	0.641	0.943
31	Mal-A7 (Maltase A7)	DRSC06077	0.0669	-0.104	-3.53
32	CR31824 (pseudo)	DRSC01517	0.921	0.657	-9.35
33	CR31824 (pseudo)	DRSC29841	-0.537	-2.1	-0.835
34	CG12133	DRSC06108	-2.22	0.427	-0.469
35	CG12133	DRSC25602	-0.486	0.561	-1.62
36	Cp36 (Chorion protein 36)	DRSC18452	-0.352	-0.497	0.839
37	Cp36 (Chorion protein 36)	DRSC27244	-4.55	-1.93	-0.0778
38	CG10553	DRSC14254	-0.416	0.0279	-0.258
39	CG12307	DRSC02159	0.425	0.804	0.176
40	CG33124	DRSC00298	0.292	-0.0851	0.152
41	CG12343	DRSC06135	1.12	0.0464	-0.362
42	Nha2 (Na[+]/H[+] hydrogen antiporter 2)	DRSC14689	-0.716	0.265	-4.26
43	Nha2 (Na[+]/H[+] hydrogen antiporter 2)	DRSC15619	2.11	-1.15	-1.9
44	Nha2 (Na[+]/H[+] hydrogen antiporter 2)	DRSC15623	-3.03	0.822	-1.56
45	Gr36b (Gustatory receptor 36b)	DRSC21637	0.134	-0.37	-0.849
46	Gr36b (Gustatory receptor 36b)	DRSC29818	0.893	1.37	-0.0416
47	Gr36b (Gustatory receptor 36b)	DRSC39083	0.45	-0.061	1.9
48	CG13137	DRSC02234	1.74	-1.27	1.49
49	CG7320	DRSC10810	0.302	1.16	-0.782
50	CG7320	DRSC26050	-0.713	1.14	-0.534
51	CG5191	DRSC15733	0.0615	-0.0127	1.19
52	CG5191	DRSC15734	0.589	-1.53	0.665
53	CG5191	DRSC21559	-0.234	-1.05	-0.389
54	CG5191	DRSC27689	-0.226	-0.308	0.0721
55	CG6034	DRSC10572	-5.05	-0.254	-0.258
56	CG6034	DRSC27294	-4.68	-4.95	-0.501
57	Sec24CD (Secretory 24CD)	DRSC00300	-0.674	1.98	0.944
58	maca	DRSC15738	1.18	1.73	2.7
59	Sans (Scaffold protein containing ankyrin repeats and SAM domain)	DRSC06357	-0.317	-0.00562	0.879
60	Sans (Scaffold protein containing ankyrin repeats and SAM domain)	DRSC27928	0.334	1.2	-1.06
61	Rab4	DRSC07524	-0.251	0.661	1.5
62	mRpS28 (mitochondrial ribosomal protein S28)	DRSC06939	-3.71	0.787	0.248
63	CG42635 + CG42634	DRSC02450	1.82	1.06	0.913
64	CG10283	DRSC02034	-0.509	0.633	1.78
65	CG10283	DRSC25302	-0.32	-5.05	-0.125
66	CG5399	DRSC15791	-0.338	0.614	0.543
67	CG5399	DRSC25357	-0.256	-0.943	0.0691
68	DCTN1-p150 (Dynactin 1, p150 subunit)	DRSC11175	-0.132	1.39	-0.128
69	DCTN1-p150 (Dynactin 1, p150 subunit)	DRSC23441	0.963	-1.39	-0.0636
